In US20230338478A1 (University of Pennsylvania, published 2023) one finds Kd, koff and kon data, which are given here for one molecule.

Test [1] addresses WT SARS-CoV-1 RBD (purified recombinant, His6) (SARS-CoV-1). Description: SPR, decoy-Fc captured on protein A/G chip, RBD injected, 1:1 fit. (In general: In SPR one partner is held on a chip, and binding of the other changes the refractive index at the surface.)
Test [2] addresses T1, WT SARS-CoV-2 RBD (purified recombinant, His6) (SARS-CoV-2).
T1 construct: range […]
Described as above.

B1: ACE2-wt-Fc4 (Fc fusion)
chain: not shown
Consider B1, for which, in test [1], the dissociation constant (Kd) (in general, the free concentration of one partner at which half of the binding sites on the other are occupied at equilibrium, for simple one-to-one binding) stood at 92.4 nM; the koff (in general, the rate constant with which the complex falls apart) is 0.0394 s⁻¹; the association rate constant (kon) (as a rule, the second-order rate constant of association) was found to be 426000 M⁻¹ s⁻¹. Further, in test [2], the dissociation constant Kd amounted to 28.6 nM, the off-rate (koff) was determined as 0.0144 s⁻¹ and the on-rate constant (kon) worked out at 505000 M⁻¹ s⁻¹.
